The entries are a selection whose mix differs from that of the whole data set. Records with an inconclusive call do not appear. Activity calls are given as the source filed them. Calls come from the whole dose curve.

A short description of this assay: qHTS for Inhibitors of Cell Surface uPA Generation: Wild-type Protective Antigen (WT-PrAg) Counterscreen for Cherry-picked Compounds. Note: 0% is about no effect. To be noted: cells, WT protective antigen toxicity counterscreen; at 115 µM (top of the series). In general terms: Quantitative high-throughput screening tests each substance at several concentrations.

As to `CCN(CC)CCCOC(=O)C(O)(c1ccccc1)c1ccccc1`, the activity (protection) was inactive: 5.86%.

Values taken from PubChem BioAssay AID720518 (National Center for Advancing Translational Sciences (NCATS), 2013).
